Protein sequences, listed by entry. Tags and fused reporters are not part of them. Residues count along the entry.
UniProt P58154, 20-229 limits assumed: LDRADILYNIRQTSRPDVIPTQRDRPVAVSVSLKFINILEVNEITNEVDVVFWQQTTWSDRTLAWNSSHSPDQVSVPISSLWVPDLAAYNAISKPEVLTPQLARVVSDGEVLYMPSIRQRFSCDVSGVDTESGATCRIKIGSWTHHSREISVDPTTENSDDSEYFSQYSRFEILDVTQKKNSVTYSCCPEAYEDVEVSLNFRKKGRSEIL
UniProt P36544, 23-502 limits assumed: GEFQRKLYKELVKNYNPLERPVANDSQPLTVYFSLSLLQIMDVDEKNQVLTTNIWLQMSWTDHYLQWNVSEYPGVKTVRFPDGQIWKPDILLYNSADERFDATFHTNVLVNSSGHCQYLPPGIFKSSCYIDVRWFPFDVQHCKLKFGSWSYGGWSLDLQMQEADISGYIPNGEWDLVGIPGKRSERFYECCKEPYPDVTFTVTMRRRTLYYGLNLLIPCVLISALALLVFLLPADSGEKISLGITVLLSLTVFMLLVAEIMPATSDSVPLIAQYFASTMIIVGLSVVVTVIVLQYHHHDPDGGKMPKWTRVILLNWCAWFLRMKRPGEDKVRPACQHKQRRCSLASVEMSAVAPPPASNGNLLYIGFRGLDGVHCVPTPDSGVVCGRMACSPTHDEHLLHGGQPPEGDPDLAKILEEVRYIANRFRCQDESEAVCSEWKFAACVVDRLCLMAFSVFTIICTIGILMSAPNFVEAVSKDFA

In PMC3210602, “Design of New α-Conotoxins: From Computer Modeling to Synthesis of Potent Cholinergic Compounds” (2011):

What was measured:
L. stagnalis AChBP = L. stagnalis AChBP (Lymnaea stagnalis, UniProt P58154); assay: Direct radioligand assay (equilibrium binding), L. stagnalis AChBP; conditions: same conditions as for A. californica AChBP
human α7 nAChR = human α7 nAChR (Homo sapiens, UniProt P36544); assay: Direct radioligand assay (equilibrium binding), human α7 nAChR in GH4C1 cells

SMILES: C[C@@H]1NC(=O)[C@H](C)NC(=O)[C@@H]2CSSC[C@H](NC(=O)CN)C(=O)N[C@@H](CSSC[C@@H](C(N)=O)NC(=O)[C@H](Cc3ccc(O)c(I)c3)NC(=O)[C@H](CC(=O)O)NC(=O)[C@@H]3CCCN3C(=O)[C@H](CC(N)=O)NC(=O)[C@H](CC(N)=O)NC1=O)C(=O)N[C@@H](CO)C(=O)N[C@@H](Cc1c[nH]cn1)C(=O)N1CCC[C@H]1C(=O)N1CCC[C@H]1C(=O)N2
- interaction of radioligand with L. stagnalis AChBP (in words) (L. stagnalis AChBP): without interacting
- binding of radioligand to human α7 nAChR (in words) (human α7 nAChR): without interacting
